The supplement of paper PMC9931576
Human monoclonal antibodies against the spike receptor-binding domain (heavy:light variable regions). IC50 against pseudoviruses bearing the spike of naturally observed variants; lower = stronger; >10 µg/ml means not reached at the top dose. No active / inactive call. The stated detection limit is 0.0005 µg/ml; values near or below 0.001 µg/ml lie at the floor of the assay.

Experiments:
Experiment in all cases: pseudovirus neutralization IC50; higher = weaker neutralization
[1] = target: SARS-CoV-2 Omicron BA.1 spike pseudovirus
Protocol: (§1)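 Single-round VSV luciferase pseudovirus mixed with antibody dilutions for 1 h and put on Huh-7 cells for about a day; IC50 from the dose curve.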

[2] = target: SARS-CoV-2 Omicron BA.2 spike pseudovirus
Protocol: as §1

[3] = target: SARS-CoV-2 Omicron BA.2.75 spike pseudovirus
Protocol: as §1

[4] = target: SARS-CoV-2 Omicron BA.5 spike pseudovirus
Protocol: as §1

[5] = target: SARS-CoV-2 Omicron BQ.1.1 spike pseudovirus
Protocol: as §1

[6] = target: SARS-CoV-2 Omicron XBB spike pseudovirus
Protocol: as §1

[7] = target: SARS-CoV-2 early D614G spike pseudovirus
Protocol: as §1

Row | Binder | pseudovirus neutralization IC50 [1] [µg/mL] | pseudovirus neutralization IC50 [2] [µg/mL] | pseudovirus neutralization IC50 [3] [µg/mL] | pseudovirus neutralization IC50 [4] [µg/mL] | pseudovirus neutralization IC50 [5] [µg/mL] | pseudovirus neutralization IC50 [6] [µg/mL] | pseudovirus neutralization IC50 [7] [µg/mL]
1 | BD55-5342 (protein) chain 1: QVQLVQSGAEVKKPGASVKVSCKASGYTFTTYAITWVRQAPGQGLELMGWISTYTGSAIYAQQLQGRVTMTTDTSTSTAYMELRRLRSDDTAVYYCARHNPETGFQNWGQGTLVTVSS chain 2: DIVMTQSPESLAVSLGERATINCKSSQSLLFSSNNKNYLAWYQQKPGQPPKLLIYWASTRESGVPDRFSGSGSGTDFTLTLSSLQAEDVAVYFCQQYYTPLYTFGPGTKVEIK | > 10 | > 10 | > 10 | > 10 | > 10 | > 10 | 0.0135
2 | BD55-5408 (protein) chain 1: QVQLVQSGAEVRKPGASVKVSCKASGYIFTNYLMYWVRQAPGHGLEWMGMIDPISGSTNYAQRFQGRVTMTRDTSTSTVNMELTNLKSEDTAVYYCARDGGMRFGDLSPDNWFDPWGRGTLVTVSS chain 2: QSVLTQPPSVSGAPGQRVTISCTGSSSNLGAGYDVHWYQQLPGAAPKLLIYGNNNRPSGVPDRFSGSRSGTSASLAITGLLTEDEADYYCQSYDSSSLNGSKVFGTGTKVTVL | > 10 | > 10 | > 10 | > 10 | > 10 | > 10 | 0.171
3 | BD55-5326 (protein) chain 1: QVQLVQSGAEVKRPGASVKVSCRTSGYTFTDYYIHWVRQAPGQGLEWMGIINPSAGTTTYARKFQGRVTLTRDTSTSTVSMDLSSLRSDDTAVYYCAREGLTGFSANWFDPWGQGTLVTVSS chain 2: DIQLTQSPSFLSASVGDRVTITCRASEDIASYLAWYQQKPGKAPKFLIYAASTLQSGVPSRFSGRRSGTEFTLTISSLQPEDFATYFCQQLNGYPITFGGGTRVEIK | > 10 | > 10 | > 10 | > 10 | > 10 | > 10 | > 10
4 | BD55-5395 (protein) chain 1: QVQLVQSGAEVKKPGSSMKVSCKASGGTFSRSAISWVRQAPGQGLEWMGGIIPMFGTPNYAQKFQGRVTITADESTSTAYMELSSLRSEDTAVYYCARDWIYGSGSYYGMDVWGQGTTVSVSS chain 2: QAVVTQEPSLTVSPGGTVTLTCGSTTGPVTGDHYAYWFQQKPGQAPKTLIYDTAHKHSWTPARFSGSFLGGKAALTLSGAQPEDEAQYYCLLSYSGAFVFGAGTKVTVL | > 10 | > 10 | > 10 | > 10 | > 10 | > 10 | > 10
5 | BD55-5380 (protein) chain 1: EVQLVESGGGLEQPGRSLRLSCAASGFTFEDYAMHWVRQAPGKGLEWVAGINWNRGGIGYADSVKGRFTISRDNAKNSLYLLMNSLRLEDTALYYCAKDKDSSWPYRYFDLWGRGTLVTVSS chain 2: QSVLTQPPSVSGAPGQRVTISCTGSSSNIGAGYDVHWYQQLPGTAPKPLIYDNTNRPSGVPDRFSGSKSGTSASLAITGLQAEDEADYYCQSYDSSLSGYVIFGGGTKLTVL | > 10 | > 10 | > 10 | > 10 | > 10 | > 10 | 0.0264
6 | BD55-5333 (protein) chain 1: QITLRESGPTLVKPTQTLTLTCTFSGFSLTTRGVGVAWVRQPPGKALEWLALLYWDDDTRYSPSLKSRVSVTKDTSKNQVVLTMTNMDPVDTGTYYCAHSSTPRASFDHWFDPWGQGTLVTVSS chain 2: QSVLTQPPSVSEAPRQRVTISCSGSSSNIGHNPVTWYQQFPGEAPKLLMYYDDRLPSGVSDRFSGSRSGTSASLAISGLQSGDEADYYCATWDDRLNGLVFGGGTKLTVL | > 10 | > 10 | > 10 | > 10 | > 10 | > 10 | 0.0369
7 | BD55-5417 (protein) chain 1: QLHLQESGPGLVKPSETLSLTCAVSGDSLRYSSYWWGWIRQPPGKGPEWIASIWYSGSSYSNPSLKSRVTISVDTSKNQFSLMLSSVTAADTAVYYCARGLLQEPVSDWLSSYLNWFDPWGQGILVTVSS chain 2: EIVVTQSPATLSVSPGERATLSCRASQSVSSDLAWYQQKRGQAPRLLIYGASTRAAGIPDRFSGSGSGTEFTLTINSLESEDFAVYYCQQYNDFNTFGQGTKVEIK | > 10 | > 10 | > 10 | > 10 | > 10 | > 10 | > 10
8 | BD55-5418 (protein) chain 1: QITLKESGPTLVKPTQTLTLTCTFSGFSLSTTGVGVSWIRQPPGKALEWLAVIYWDDDKHYSPSLKSRLTITKDTSKNQVVLTMTNMDPVDTATYYCAHLEWPKGYFYYYFGMDVWGQGTTVTVSS chain 2: EIVLTQSPGTLSLSPGERATLSCRASQSVTSTYLAWYQQKPGQAPRLLIYSASSRATGIPDRFSGSGSGTDFTLTISRLEPDDFAVYYCHLYGSSLYTFGQGTKVEIK | 5.49 | 9.55 | 6.8 | 7.51 | 3.14 | 4.9 | 3.29
9 | BD55-5384 (protein) chain 1: QVQLVQSGAEVKKPGSSVKVSCKTSGGNFNNYAIYWVRQAPGQGLEWMGGIIPIFGTTNYAQNFQGRVTITADESTTTVYMDLSSLRSEDTAVYYCARDGSSPSYSGYDWLSPGWIDPWGQGTLVTVSS chain 2: IVMTQSPDSLAVSLGERATINCKSSRSVLYSSNNKNHLAWYQHKPGQPPKLLIYWASTRKSGVPDRFSGSGSGTDFTLTISSLQAEDVAVYYCQQYYSPPLTFGGGTKVEIK | > 10 | > 10 | > 10 | > 10 | > 10 | > 10 | 0.963
10 | BD55-5413 (protein) chain 1: EVQLLESGGGLVQPGGSLRLSCAASGFTFSNFAMIWVRQAPGKGLEWVSRITGSGGDTYYADSVKGRFTISRDNSKNTLSLKMSSLRPEDTAVYYCAKEWAAAGYLVFDIWGLGTMVTVSS chain 2: DIQMTQSPSSLSASVGDRVTIFCQASQDVSNYLNWYQQKPGKAPKLLIYDASNLETGVPSRFSGSGSGTDFTFTISSLQPEDIATYYCQQYDNVAPTFGGGTRVEIK | > 10 | > 10 | > 10 | > 10 | > 10 | > 10 | > 10
11 | BD55-5382 (protein) chain 1: QLQLQESGPGLVKPSETLSLSCTVSGGSISSTNYYWAWIRQPPGKGLEWIGSFHFGQSIYYNPSLKSRITISVDTSKNQFSLKLRSVTAADTAVYFCASGVVVAAGFYYHYGMDVWGQGTTVTVSS chain 2: AYELTQPPSVSVSPGQTARITCSGDSLPNQYTYWYQQRPGQAPVVVIYKDNERPSGIPERFSGSSSGTTVTLTISGVLAEDEADYYCLSSEISGTWVFGGGTKLTVL | > 10 | > 10 | > 10 | > 10 | > 10 | > 10 | 0.304
12 | BD55-5404 (protein) chain 1: QVQLQQWGAGLLKPSEILSLTCAVNGGSFSGFCWSWIRQPPGKGLEWIGEVDHSGGTNYNPSLKSRVTISVDTSQNQFSLKLTSLTAADTAVYYCARGGPRPIYDMLTGDVDYYYYGMDVWGQGTTVTVSS chain 2: QSALTQPASVSGSPGQSITISCTGTTSDVGGHDSLSWYQQHPGKAPKLIIYDVTKGPSGASDRFSGSKSGNTASLTISGLQAEDEADYYCSSYTSTRRVFGTGTKVTVL | 1.52 | 1.51 | 1.55 | 1.49 | 1.68 | 1.36 | 1.49
